In PubChem BioAssay AID898 (University of Pittsburgh Molecular Library Screening Center, 2007) one finds inhibition data, which are given here for 29 compounds.

The entries are a selection whose mix differs from that of the whole data set. Calls of active or inactive are those of the source. No stated cut-off is given here; in the data, active means inhibition above about 50%; inactive means the rest.

In the experiment the test system is YopH tyrosine phosphatase [Yersinia enterocolitica]. Briefly: inhibition of Yersinia YopH phosphatase – biochemical, fluorescence Ex485/Em525, primary screen (AID 898). The following applies: active compounds read high, concentration not given here.
By inhibition is commonly meant the change of the read-out against control, counted positive when it falls. With `CN1CCCC(OC(=O)C(c2ccccc2)c2ccccc2)C1` (centres undefined), the inhibition is inactive: -25.6%. As to `CN(C)CCOC(=O)C(O)(c1ccccc1)C1CCCC1` (centres undefined), the inhibition was inactive: -9.89%. In the case of `COc1ccc(OP(C)(=O)Nc2ccccn2)cc1` (centres undefined) it was inactive: -8.72%; in that of `O=C(NC(Sc1ccncn1)C(Cl)(Cl)Cl)c1ccccc1` (centres undefined), inactive: -18.1%.

For `Cc1c2non([O-])c-2c(C)[n+](=O)[n+]1[O-]`, the inhibition is inactive: -25.6%. To `Oc1ccccc1CNc1ccccn1` belongs inactive: -21.9%.

Regarding `Cc1c(NP(C)(=O)Oc2ccc(C(C)C)cc2)c(=O)n(-c2ccccc2)n1C` (centres undefined), the inhibition is inactive: -49.3%. Consider `CC(C)CC(=O)NC(Sc1ccc(Cl)cc1)C(Cl)(Cl)Cl` (centres undefined), for which the inhibition was inactive: -38.7%. `CCc1ccc(OP(C)(=O)O)cc1`: the inhibition was inactive: 1.15%. To `COc1ccccc1OP(C)(=O)Nc1ccc(C)cc1C` (centres undefined) belongs inactive: -26.6%. Take `CP(=O)(Nc1ccccn1)Oc1ccccc1` (centres undefined): the inhibition was inactive: -29.1%. As to `COc1ccc(OP(C)(=O)Nc2ccccc2Br)cc1` (centres undefined), the inhibition is inactive: -0.59%.

As to `COc1ccccc1OP(C)(=O)Nc1ccc(C)c(C)c1` (centres undefined), the inhibition is inactive: -52.9%. In the case of `Cc1cc(SC(NC(=O)c2ccc(F)cc2)C(Cl)(Cl)Cl)ncn1` (centres undefined) it was inactive: -22%; in that of `CCOP(=O)(Nc1ccccc1)OCC`, inactive: 6.46%.

As for `Cc1nc2ccc3ccccc3c2o1.O=[N+]([O-])c1cc([N+](=O)[O-])c(O)c([N+](=O)[O-])c1`, the inhibition is inactive: -28.1%. In the case of `CCN(N=Nc1nonc1N)c1nonc1N` it was inactive: -55.9%; in that of `CP(=O)(OC12CC3CC(CC(C3)C1)C2)OC12CC3CC(CC(C3)C1)C2`, inactive: 0.5%; in that of `CCOC(=O)c1ccc(NP(C)(=O)Oc2ccc(Cl)cc2)cc1` (centres undefined), inactive: -20.3%. On to `COc1ccc(OP(C)(=O)Nc2ccc(Br)cc2)cc1` (centres undefined), for which the inhibition was inactive: -20.8%. To `CCN(CC)CC(O)COC(=O)C(O)(c1ccccc1)C1CCCCC1` (centres undefined) belongs inactive: -42.1%; to `CCc1nc2c(n1)c1c(non1O)c1c2no[n+]1[O-]`, inactive: -32.1%.

`CP(=O)(Oc1ccccc1)N1CCOC1=O` (centres undefined): the inhibition was inactive: -31.2%.

`O=[N+]([O-])c1cccc2n[nH]nc12`: the inhibition was inactive: -4.33%. Regarding `CC(=O)N1C2C3N(C(C)=O)C1C1N(C(C)=O)C(C(N1C(C)=O)N3C(C)=O)N2C(C)=O`, the inhibition is inactive: 2.38%. In the case of `COc1ccccc1OP(C)(=O)Nc1c(C)n(C)n(-c2ccccc2)c1=O` (centres undefined), the inhibition is inactive: -1.42%.

`CP(=O)(Nc1ccc(Cl)cc1)Oc1ccc(F)cc1` (centres undefined): the inhibition was inactive: 5.84%. To `CC(C)(C)c1ccc(OP(C)(=O)O)cc1` belongs inactive: -25.2%; to `CC1CCN(C(=O)Oc2c(Cl)cc(Cl)c3cccnc23)CC1`, inactive: 5.93%.
